The record followed here is PubChem BioAssay AID2391 (Southern Research Specialized Biocontainment Screening …, 2010).

SMILES strings stand for the structures. The list shows a part of the results. Measured potencies and affinities stand elsewhere. Active and inactive are the calls of the source. How the calls were made is not given here.

This test is described as follows: inhibition of RSV-induced cytopathic effect – HEp-2 cells, primary 10 µM value included (AID 2391). As to conditions: at 10 µM, active compounds read high. (Protection from cytopathic effect is a common read-out in antiviral testing.)
Take `O=[As](O)(c1cccs1)c1cccs1`: the CPE inhibition is inactive: 2.2%.

Take `O=P1(Nc2ccc(Br)cn2)COc2ccccc2OC1`: the CPE inhibition was inactive: 0.2%.

Turning to `NS(=O)(=O)c1cccc(NC(=O)COC(=O)C(O)(c2ccccc2)c2ccccc2)c1`, the CPE inhibition is inactive: 0.77%.

Regarding `Cc1nn(-c2ccccc2)c2c1P(=O)(N1CCOCC1)N(C)C(c1ccccc1)=N2` (stereo not given), the CPE inhibition was inactive: 1.63%.

In the case of `CC1CCC(C(C)C)C(OP(=O)(Nc2ccccn2)c2ccccc2)C1` (stereo not given), the CPE inhibition is inactive: -1.73%.

For the molecule `Cc1ccc(C(=O)OC2CN3CCC2CC3)cc1` (stereo not given), the CPE inhibition is inactive: 0.49%.

For `CN(C)C1(CNC(=O)c2ccc(S(C)(=O)=O)cc2)CCCCC1`, the CPE inhibition was inactive: 0.36%.

Consider `COc1ccccc1CNC(=O)COC(=O)C(O)(c1ccccc1)c1ccccc1`, for which the CPE inhibition is inactive: -1.17%.

Turning to `CC(C)/C=N\N=C(\N)N[N+](=O)[O-]`, the CPE inhibition was inactive: 3.24%.

Regarding `CN(C(=O)Cc1ccc(Cl)c(Cl)c1)[C@@H]1CCCC[C@H]1N1CCCC1`, the CPE inhibition was inactive: -2.31%.

As to `O=[As](O)(c1ccccc1Br)c1ccccc1Br`, the CPE inhibition was inactive: 4.38%.

On to `O=P1(Nc2ccccn2)COc2ccccc2OC1`, for which the CPE inhibition is inactive: 1.48%.

On to `CCOP(=O)(NC(=NC(C)c1ccccc1)NC(C)c1ccccc1)OCC` (stereo not given), for which the CPE inhibition is inactive: 1.89%.

Consider `CCOP(=O)(Nc1ccc(C)cn1)OCC`, for which the CPE inhibition is inactive: 2.2%.

As to `CN(CCCl)Cc1cc(Cl)c(NC2=NCCN2)c(Cl)c1`, the CPE inhibition is inactive: -1.58%.

With `Clc1n[nH]nc1-c1nn[nH][15n]1`, the CPE inhibition was inactive: 0.96%.

For `CC(C)(C)C(=O)NC(Sc1ncccn1)C(Cl)(Cl)Cl` (stereo not given), the CPE inhibition was inactive: 1.34%.

For `Cc1ccc(NCCc2c([N+](=O)[O-])cc([N+](=O)[O-])cc2[N+](=O)[O-])cc1`, the CPE inhibition was inactive: 14.2%.

As for `Nc1cccc2c([As](=O)(O)O)cccc12`, the CPE inhibition is inactive: 1.59%.

In the case of `CCCOP(=S)(Nc1nc(N)cc(=O)[nH]1)OCCC`, the CPE inhibition was inactive: 1.89%.

For the molecule `COc1cc(C2NCCC3(OCCO3)C2(C)C)cc(OC)c1OC` (stereo not given), the CPE inhibition was inactive: 1.49%.

For the molecule `CCOP(=O)(Nc1cccc2ccccc12)OCC`, the CPE inhibition is inactive: 1.82%.

Turning to `O=C(OC1CN2CCC1CC2)c1ccc(Cl)cc1` (stereo not given), the CPE inhibition is inactive: 2.05%.

In the case of `O=[As](O)(O)c1cccnc1`, the CPE inhibition is inactive: -0.08%.

Turning to `COc1cc(C(=O)NCC2(N3CCOCC3)CCCCC2)cc(Cl)c1OC(C)C`, the CPE inhibition was inactive: 0.17%.

For `CS(=O)(=O)c1ccc(Cl)c(NC(=O)COC(=O)C(O)(c2ccccc2)c2ccccc2)c1`, the CPE inhibition is inactive: 0.78%.

On to `Cc1cccc(OCC(=O)OC2CN3CCC2CC3)c1` (stereo not given), for which the CPE inhibition is inactive: 0.67%.

Consider `O=[As](O)(c1cccc(O)c1)c1cccc(O)c1`, for which the CPE inhibition was inactive: 0.18%.

In the case of `NC(=O)Nc1ccc([As](=O)(O)O)cc1`, the CPE inhibition was inactive: 0.12%.

With `N#CCCN(C(=O)COC(=O)C(O)(c1ccccc1)c1ccccc1)c1ccc(F)cc1`, the CPE inhibition is inactive: 0.51%.

Turning to `CCOP1(=S)c2c(C)nn(CCC#N)c2N=C(c2ccc(F)cc2)N1C` (stereo not given), the CPE inhibition is inactive: -1.25%.

Consider `CN(C(=O)Cc1ccccc1)[C@@H]1CC[C@]2(CCCO2)C[C@H]1N1CCCC1`, for which the CPE inhibition was inactive: -1.22%.

For `CN(C)C(=O)c1cc([N+](=O)[O-])cc2c1-c1c(cc([N+](=O)[O-])cc1[N+](=O)[O-])C2=O`, the CPE inhibition is inactive: -2.43%.

Turning to `CN(C(=O)Cc1ccc(Cl)c(Cl)c1)[C@H]1CC[C@@]2(CCCO2)C[C@@H]1N1CCCC1`, the CPE inhibition is inactive: -1.91%.

Take `CCOP1(=S)c2c(C)nn(CCC#N)c2N=C(c2ccccc2F)N1C` (stereo not given): the CPE inhibition was inactive: 0.16%.

`O=P(Nc1nccs1)(Oc1ccccc1)Oc1ccccc1`: the CPE inhibition is inactive: -0.93%.

Consider `O=P(Nc1nccs1)(c1ccccc1)c1nc2ccccc2s1` (stereo not given), for which the CPE inhibition was inactive: -0.52%.

As for `CS(=O)(=O)c1cc([N+](=O)[O-])c2no[n+]([O-])c2c1`, the CPE inhibition was inactive: -0.93%.

On to `Nc1ccccc1[As](=O)(O)c1ccccc1`, for which the CPE inhibition is inactive: 3.42%.

Turning to `O=C(O)COc1ccc([As](=O)(O)O)cc1[N+](=O)[O-]`, the CPE inhibition is inactive: 0.53%.
